PubChem BioAssay AID1259414 – Drosophila RNAi Screening Center, 2018

Purpose: 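Genome-wide screen for host control of endosymbiont load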 (primary screen)
Cells: Drosophila JW18 cells infected with Wolbachia
Knock-down reagent: long dsRNA against Drosophila genes, 0.25 µg dsRNA per well of a 384-well plate
Time to read-out: 5 days
Conditions: cells persistently infected with Wolbachia before knock-down; no added drug
Measurement: 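Automated imaging of bacterial rRNA staining divided by host cell count, reported as plate-normalised robust z-score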
Direction: Wolbachia per cell robust z: higher = more Wolbachia per host cell than the plate typical
Active means: 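Active if absolute robust z reaches 1.5 in two or more of three replicates, leaving out multi- or no-target dsRNAs, genes unexpressed in JW18 and A1 wells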
The deposit covers about 24,000 reagents; below is an unselected part of those with a known target gene and a result. Over the whole deposit, about 1,210 (5%) were called active. 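Inactive calls also include excluded dsRNAs with several or no targets, genes unexpressed in JW18, and well A1, regardless of score.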 Names joined by + are all predicted targets of the reagent.

gene knocked down,dsRNA,"Wolbachia per cell robust z, rep 1","Wolbachia per cell robust z, rep 2","Wolbachia per cell robust z, rep 3",activity call
CG16787,DRSC04282,-5.51,0.282,-6.16,active
kon,DRSC02033,0.264,0.667,0.23,inactive
inaD,DRSC04694,-5.39,-4.78,-1.01,active
inaD,DRSC27116,0.845,0.618,-2.34,inactive
CG13326,DRSC06363,0.827,0.709,-0.912,inactive
Galphaf,DRSC11171,-0.836,-2.04,-0.206,inactive
Ttc30,DRSC02818,-1.1,0.872,-0.16,inactive
Ttc30,DRSC25846,-0.587,0.269,-0.777,inactive
CG33199 + CG8229,DRSC05134,-3.47,-2.61,-1.36,inactive
CG33199 + CG8229,DRSC27680,-1.08,0.209,0.376,inactive
Vta1,DRSC08604,-0.479,0.498,0.674,inactive
Vta1,DRSC22848,-0.189,-0.66,-1.86,inactive
CG15731,DRSC19698,0.195,-0.279,-0.227,inactive
CG15731,DRSC21820,-0.142,-1.36,0.681,inactive
CG15731,DRSC26144,-0.358,-0.15,0.188,inactive
CG31013,DRSC16542,0.35,-0.0557,0.895,inactive
Mst77F,DRSC11871,-0.892,-0.162,-0.709,inactive
Dgk,DRSC05064,-0.0412,-0.788,-0.497,inactive
Dgk,DRSC05065,0.352,0.286,0.348,inactive
Dgk,DRSC06171,0.0639,-6.15,-0.585,inactive
Dgk,DRSC06782,0.944,0,1.15,inactive
Dgk,DRSC25166,0.746,-0.262,-0.365,inactive
SdhC,DRSC16088,-3.49,-0.0134,0.408,inactive
Sec63,DRSC11002,0.116,-0.811,0.121,inactive
fln,DRSC11346,-1.28,-2.48,0.545,inactive
fln,DRSC28670,-0.0143,0.144,0.16,inactive
CG4962,DRSC10464,-2.9,0.656,1.9,inactive
CG12682,DRSC17873,-0.511,-0.64,-0.119,inactive
CG8051,DRSC20077,0.000823,-0.741,-2.14,inactive
CG8051,DRSC26855,-2.59,-0.312,0.353,inactive
CG31454,DRSC14365,-0.676,0.125,0.619,inactive
CG31454,DRSC22801,-1.17,-4.36,-1.13,inactive
CG31454,DRSC24377,-0.0573,0.603,-0.843,inactive
Hmbs,DRSC08632,0.294,-0.388,-1.53,inactive
NetB,DRSC20262,-0.209,-0.172,-0.139,inactive
NetB,DRSC26437,-0.108,-0.41,0.367,inactive

Called active, of those listed so far:
gene knocked down,dsRNA,"Wolbachia per cell robust z, rep 1","Wolbachia per cell robust z, rep 2","Wolbachia per cell robust z, rep 3",activity call
CG16787,DRSC04282,-5.51,0.282,-6.16,active
inaD,DRSC04694,-5.39,-4.78,-1.01,active

The list goes on.
gene knocked down,dsRNA,"Wolbachia per cell robust z, rep 1","Wolbachia per cell robust z, rep 2","Wolbachia per cell robust z, rep 3",activity call
Ir94f,DRSC13621,-1.45,-1.26,-2.31,inactive
Rsph3,DRSC09696,-0.783,-0.244,0.335,inactive
Rsph3,DRSC10211,-1.78,-0.737,-4.54,inactive
Rsph3,DRSC26917,-1.78,-0.788,-0.914,inactive
Diedel3,DRSC19544,-0.202,-1.75,-3.33,inactive
Nedd4,DRSC11234,-0.839,-0.0866,-0.42,inactive
Nedd4,DRSC21548,0.42,-1.66,-0.549,inactive
Nedd4,DRSC26365,-0.966,1.07,0.694,inactive
CanA1,DRSC16600,0.717,-0.715,-1.57,inactive
CanA1,DRSC25868,-0.223,0.677,0.362,inactive
Sas-4,DRSC12505,0.516,-0.399,-2.43,inactive
Tim13,DRSC09848,-0.0924,0.556,0.109,inactive
larp,DRSC14728,0.746,0.844,-0.0366,inactive
larp,DRSC16984,-3.64,0.304,-0.658,inactive
larp,DRSC21856,0.0795,0.463,0.794,inactive
larp,DRSC24427,0.521,-0.0342,0.508,inactive
larp,DRSC28325,-1.24,-0.239,-0.249,inactive
CG12531,DRSC19466,-0.174,0.695,0.229,inactive
CG12531,DRSC27679,0.805,1.11,1.04,inactive
cac,DRSC19743,-0.239,-3.28,0.378,inactive
cac,DRSC20354,-4.86,0.0322,-0.544,inactive
cac,DRSC39146,0.284,-0.451,0.231,inactive
Gr57a,DRSC06401,-0.839,1.07,0.615,inactive
CG32079,DRSC22636,-0.481,0.7,0.375,inactive
HPS1,DRSC06195,0.461,-0.258,0.363,inactive
na,DRSC19639,0.362,0.972,-0.0735,inactive
na,DRSC29828,-7.79,0.837,0.407,inactive
Tsf2,DRSC09751,-6.87,-0.585,-0.521,inactive
Cpr65Ea,DRSC11027,-6.7,0.713,-0.045,inactive
Cpr65Ea,DRSC25692,-0.531,0.518,0.668,inactive
Tudor-SN,DRSC08581,0.582,0.265,1.02,inactive
NTPase,DRSC00761,-0.912,0.806,0.0774,inactive
NTPase,DRSC26233,-3.12,0.318,-0.444,inactive
NTPase,DRSC41566,0.604,0.941,-1.74,inactive
